A mixed list of measured activities; the numbers were collected in NIAID ChemDB.

All rows: whole-cell or culture tests; organism: Mycobacterium smegmatis; read-out: MIC

Rows are shuffled and stem from different studies.

CCCCCCCCCCCOc1cc(-c2cccc(F)c2)nc2ccccc12 ; strain: ATCC 607 ; value: 62.5 µg/mL
CCCCCCCCCCCCC#CCCCC(=O)O ; strain: mc2155 ; value: 360 µg/mL
O=C(/C=C/c1ccccc1)Nc1cccc(CN2CCOCC2)c1 ; strain: 103599 ; value: >16 µg/mL
CCCCCCCCCCCCCCOc1cc(-c2ccccc2F)nc2ccccc12 ; strain: ATCC 607 ; value: 500 µg/mL
CCO/N=C(/CN1CCN(c2c(F)cc3c(=O)c(C(=O)O)cn(C4CC4)c3c2OC)CC1)c1cc2ccccc2oc1=O ; strain: CMCC 93202 ; value: 6.25 µg/mL
CCCCCCCCCOc1cc(-c2cccc(F)c2)nc2ccccc12 ; strain: ATCC 607 ; value: 62.5 µg/mL
NCCC[C@H](N)CC(=O)N[C@H]1CNC(=O)[C@H]([C@H]2C[C@H](O)NC(N)=N2)NC(=O)/C(=C/NC(N)=O)NC(=O)[C@H](CO)NC(=O)[C@H](CO)NC1=O ; strain: rabinowitchi 16 ; value: 5 µg/mL
CN1CCN(Cc2ccccc2NC(=O)c2ccc(-c3ccccc3)cc2)CC1 ; strain: 103599 ; value: >16 µg/mL
Cc1c(C)c(C)[c-](C)c1C.N[C@H](C(=O)[O-])c1ccccc1.[Cl][Rh+2] ; strain: VT 307 ; value: 7 µg/mL
CN1CCN(Cc2cccc(NC(=O)/C=C/c3ccccc3)c2)CC1 ; strain: 103599 ; value: >16 µg/mL
CCCCCCOc1cc(-c2ccc(F)cc2)nc2ccccc12 ; strain: ATCC 607 ; value: 125 µg/mL
NNC(=O)c1ccncc1 ; strain: MC^2 832 ; value: 60 µg/mL
Cc1[nH]c2ccccc2c1C1=C(Br)C(=O)N(C)C1=O ; strain: SG987 ; value: 50 µg/mL
NCC[C@H](O)C(=O)N[C@@H]1C[C@H](N)[C@@H](O[C@H]2O[C@H](CN)[C@@H](O)[C@H](O)[C@H]2O)[C@H](O)[C@H]1O[C@H]1O[C@H](CO)[C@@H](O)[C@H](N)[C@H]1O ; strain: mc155 ; value: 2.3 µg/mL
CCCCCCCCCCCCCCOc1cc(-c2ccc(F)cc2)nc2ccccc12 ; strain: ATCC 607 ; value: 250 µg/mL
O=C(Nc1ccc(CN2CCOCC2)cc1)c1ccc(Cl)cc1 ; strain: 103599 ; value: >16 µg/mL
CCCCCc1[nH]c2ccccc2c1C1=C(Br)C(=O)NC1=O ; strain: SG987 ; value: 0.56 µg/mL
CCCCCCCC/C=C\CCCCCCCC(=O)O ; strain: mc2155 ; value: >200 µg/mL
O=C(Nc1ccc(CN2CCOCC2)cc1)c1ccc(-c2ccccc2)cc1 ; strain: 103599 ; value: >16 µg/mL
CCCCCCCCCCCCCCCC(=O)NC1CNC(=O)C(C2CCN=C(N)N2)NC(=O)/C(=C/NC(N)=O)NC(=O)C(CO)NC(=O)C(CO)NC1=O ; strain: rabinowitchi 15 ; value: 5 µg/mL
CCCc1[nH]c2ccccc2c1C1=C(Br)C(=O)N(C)C1=O ; strain: SG987 ; value: 25 µg/mL
O=C(Nc1ccccc1Cn1ccnc1)c1ccc(Cl)cc1 ; strain: 103599 ; value: >16 µg/mL
CCCCCCCCCCCCCCCCOC(=O)NC(C)(CCC(=O)O)CCC(=O)O ; strain: mc155 ; value: 54 µg/mL
CO/N=C(/CN1CCN(c2c(F)cc3c(=O)c(C(=O)O)cn(C4CC4)c3c2OC)CC1)c1cc2ccccc2oc1=O ; strain: CMCC 93202 ; value: 6.25 µg/mL
O=C(/C=C/c1ccccc1)Nc1ccc(Cn2ccnc2)cc1 ; strain: 103599 ; value: >16 µg/mL
CCCCCCCc1[nH]c2ccccc2c1C1=C(Br)C(=O)NC1=O ; strain: SG987 ; value: 0.3 µg/mL
CC[C@H](C)[C@@H](NC(=O)[C@@H](CCC(=O)O)NC(=O)[C@H](Cc1cnc[nH]1)NC(=O)[C@H](CC(C)C)NC(=O)[C@H](N)Cc1ccccc1)C(=O)N[C@H]1CCCCNC1=O ; value: 0.78 µg/mL
CCCCCCc1[nH]c2ccccc2c1C1=C(Br)C(=O)NC1=O ; strain: SG987 ; value: 0.14 µg/mL
COc1ccc2cc(C(=O)CN3CCN(c4c(F)cc5c(=O)c(C(=O)O)cn(C6CC6)c5c4OC)CC3C)c(=O)oc2c1 ; strain: CMCC 93202 ; value: >12.5 µg/mL
CO[C@H]1/C=C/O[C@@]2(C)Oc3c(C)c(O)c4c(O)c(cc(O)c4c3C2=O)NC(=O)/C(C)=C\C=C\[C@H](C)[C@H](O)[C@@H](C)[C@@H](O)[C@@H](C)[C@H](OC(C)=O)[C@@H]1C ; strain: mc155 ; value: 25 µg/mL
COc1ccc2cc(C(=O)CN3CCN(c4c(F)cc5c(=O)c(C(=O)O)cn(C6CC6)c5c4OC)CC3)c(=O)oc2c1 ; strain: CMCC 93202 ; value: 6.25 µg/mL
CCCCCCCCCCCCCCC/C=C/C(=O)O ; strain: mc2155 ; value: >200 µg/mL
CN1CCN(Cc2cccc(NC(=O)c3ccc(-c4ccccc4)cc3)c2)CC1 ; strain: 103599 ; value: 8 µg/mL
CCO/N=C(/CN1CCN(c2cc3c(cc2F)c(=O)c(C(=O)O)cn3C2CC2)CC1)c1cc2ccc(OC)cc2oc1=O ; strain: CMCC 93202 ; value: 12.5 µg/mL
Cc1[nH]c2ccccc2c1C1=C(Br)C(=O)NC1=O ; strain: SG987 ; value: 25 µg/mL
CCCCCCCCCCCCCCCCCC(=O)NC(CCC(=O)O)(CCC(=O)O)CCC(=O)O ; strain: mc155 ; value: 27 µg/mL
NNC(=O)c1ccncc1 ; strain: mc2155 ; value: 40 µg/mL
CCCCCCCOc1cc(-c2cccc(F)c2)nc2ccccc12 ; strain: ATCC 607 ; value: 62.5 µg/mL
COc1ccc(-c2[nH]c3ccccc3c2C2=C(Br)C(=O)NC2=O)cc1 ; strain: SG987 ; value: 13.1 µg/mL
CCCCCCCCCCC(CCCCCCCCCC)OC(=O)NC(CCC(=O)O)(CCC(=O)O)CCC(=O)O ; strain: mc155 ; value: 27 µg/mL
COc1ccc2cc(C(=O)CN3CCN(c4cc5c(cc4F)c(=O)c(C(=O)O)cn5C4CC4)CC3)c(=O)oc2c1 ; strain: CMCC 93202 ; value: 12.5 µg/mL
CCCCc1[nH]c2ccccc2c1C1=C(Br)C(=O)N(C)C1=O ; strain: SG987 ; value: 25 µg/mL
CCCCCCCCCCCCCCCCCCC(=O)NC(C)(CCC(=O)O)CCC(=O)O ; strain: mc155 ; value: 9 µg/mL
CCCCCCCCCCCOc1cc(-c2ccc(F)cc2)nc2ccccc12 ; strain: ATCC 607 ; value: 250 µg/mL
CN1CCN(Cc2ccc(NC(=O)c3ccc(-c4ccccc4)cc3)cc2)CC1 ; strain: 103599 ; value: 8 µg/mL
CCCCCCCCCCCCCCCCCCCC(=O)NC(CCC(=O)O)(CCC(=O)O)CCC(=O)O ; strain: mc155 ; value: 3 µg/mL

4 of the rows above, restated:

compound | strain | value
CN1CCN(Cc2ccccc2NC(=O)c2ccc(-c3ccccc3)cc2)CC1 | 103599 | >16 µg/mL
CN1CCN(Cc2ccc(NC(=O)c3ccc(-c4ccccc4)cc3)cc2)CC1 | 103599 | 8 µg/mL
CCCCCCCCCCCCC#CCCCC(=O)O | mc2155 | 360 µg/mL
O=C(Nc1ccccc1Cn1ccnc1)c1ccc(Cl)cc1 | 103599 | >16 µg/mL